## Single amino acid changes in Zika NS2B-NS3 and viral growth

The scanned region of Zika virus MR766 is shown below (positions 1-308): NS2B is 2-131, NS3 begins at position 132.
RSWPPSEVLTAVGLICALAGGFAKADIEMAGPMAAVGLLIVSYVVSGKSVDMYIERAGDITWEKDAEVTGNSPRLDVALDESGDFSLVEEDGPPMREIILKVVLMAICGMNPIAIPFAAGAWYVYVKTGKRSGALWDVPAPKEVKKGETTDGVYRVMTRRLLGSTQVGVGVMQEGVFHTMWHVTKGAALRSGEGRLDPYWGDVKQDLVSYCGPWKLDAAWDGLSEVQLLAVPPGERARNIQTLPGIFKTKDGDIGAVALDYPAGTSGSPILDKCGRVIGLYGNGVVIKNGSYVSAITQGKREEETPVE

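Pools of virus carrying all single amino acid changes were selected for growth in Huh-7.5 cells. Sequencing of three replicate libraries (two for positions 207-308) was averaged into one effect per change. The study looked for pockets that tolerate few changes, as a guide for inhibitor design.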

Values are log2 effects on growth: 0 is wild type, lower means poorer growth. A change reads original residue, position, new residue. Stop codons (*) centre on -7 and mark the level of dead virus.

| substitution | log2 effect |
|---|---|
| S2K | -7.01 |
| E7M | -3.89 |
| L9V | -2.79 |
| A23* | -6.70 |
| E28I | -4.17 |
| M29H | -1.52 |
| G31S | -3.98 |
| V36R | -6.59 |
| G37E | -5.87 |
| V41S | -4.21 |
| Y43I | -6.35 |
| S49I | -4.72 |
| V50* | -6.90 |
| D51E | -1.27 |
| D51K | -5.99 |
| D59P | -2.95 |
| D59Y | -2.41 |
| V68R | -5.75 |
| G70Q | -5.96 |
| P94S | -1.64 |
| R96Y | -3.58 |
| K101R | -1.92 |
| V102Q | -6.85 |
| P112F | -4.23 |
| P112V | -5.83 |
| W122Q | -5.99 |
| Y125* | -7.12 |
| K127I | -6.16 |
| G129R | -6.84 |
| A134E | -5.41 |
| K145Y | -2.28 |
| G147W | -2.34 |
| Y154E | -5.04 |
| V167M | -5.82 |
| G170F | -5.58 |
| G170T | -6.71 |
| G175F | -4.61 |
| G175Y | -4.39 |
| K185W | -5.39 |
| A187R | -6.51 |
| R190Y | -2.05 |
| S191V | -2.19 |
| E193W | -5.21 |
| D202N | -0.79 |
| L207M | -7.04 |
| S209K | -6.72 |
| S209V | -3.99 |
| L216V | -7.74 |
| W220L | -8.00 |
| Q241L | -7.83 |
| L243E | -5.43 |
| D251L | -7.00 |
| I254* | -7.81 |
| Y261N | -3.60 |
| G279F | -4.97 |
| G279N | -4.60 |
| N283M | -5.43 |
| V285H | -4.66 |
| A295M | -4.59 |
| I296D | -4.75 |
| K300V | -3.70 |
| E302R | -1.22 |
| E304F | -0.44 |

Positions 1-103, 104-206 and 207-308 were made and measured as separate libraries. Position 1 still belongs to NS2A. In the paper, -1 or higher counts as tolerated. Values above 0 are not proof of better growth: six high scorers were tested one by one, five grew less well than wild type and one about as well.

Reference: Ni et al. 2025, doi:10.1038/s41467-025-63602-z.